US9018248B2, “Fatty acid derivatives of catechins and methods of their use” (Genesis Group Inc., priority 2010, dated 2015)

Assay: Bulk oil system, stripped corn oil, Rancimat
Conditions: Rancimat 100° C., 1 μmol compound in 3 g stripped corn oil
Experimental: One milliliter of EGCG and its derivatives dissolved in ethanol (1 μmol/ml) was transferred into a reaction vessel, followed by evaporation of the solvent to dryness under a stream of nitrogen. To each vessel (an empty vessel was used as control) 3 g of stripped corn oil (devoid of endogenous antioxidants) were added. The evaluation was carried out under accelerated oxidation in a Rancimat (Metrohm Model 743, Herisau, Switzerland) conditions at 100° C. with an air flow rate of 20 l/h. Lipid oxidation in the absence and presence of test compounds was monitored by changes in electrical conductivity, arising from the formation of volatile oxidation products. The induction periods (IP, time to reach a sudden increase in oxidation rate) were recorded. […] Antioxidant activity was interpreted as protection factor (PF), which was calculated as follow. PF=IPsample/IPcontrol where, IPsample and IPcontrol represent induction periods for the oil with and without test compounds, respectively. Discussion
In the case of `CCCCCCCCCCCCCCCCCC(=O)Oc1cc(C(=O)OC2Cc3c(O)cc(O)cc3OC2c2cc(OC(=O)CCCCCCCCCCCCCCCCC)c(O)c(OC(=O)CCCCCCCCCCCCCCCCC)c2)cc(OC(=O)CCCCCCCCCCCCCCCCC)c1O` (stereo not shown) [Compound 1a, EGCG stearate], the “Induction Time” value is reported as 6.75 h. With `CCC=CCC=CCC=CCC=CCC=CCCCC(=O)Oc1cc(C(=O)OC2Cc3c(O)cc(O)cc3OC2c2cc(OC(=O)CCCC=CCC=CCC=CCC=CCC=CCC)c(O)c(OC(=O)CCCC=CCC=CCC=CCC=CCC=CCC)c2)cc(OC(=O)CCCC=CCC=CCC=CCC=CCC=CCC)c1O` (stereo not shown) [Compound 1b] the “Induction Time” value was 2.33 h. For `CCC=CCC=CCC=CCC=CCC=CCC=CCCC(=O)Oc1cc(C(=O)OC2Cc3c(O)cc(O)cc3OC2c2cc(OC(=O)CCC=CCC=CCC=CCC=CCC=CCC=CCC)c(O)c(OC(=O)CCC=CCC=CCC=CCC=CCC=CCC=CCC)c2)cc(OC(=O)CCC=CCC=CCC=CCC=CCC=CCC=CCC)c1O` (stereo not shown) [Compound 1c], the “Induction Time” value was 2.19 h. With `O=C(O[C@@H]1Cc2c(O)cc(O)cc2O[C@@H]1c1cc(O)c(O)c(O)c1)c1cc(O)c(O)c(O)c1` [EGCG, Epigallocatechin gallate, reference compound] the “Induction Time” value was 3.97 h.
